Laboratory results: PubChem BioAssay AID1259414 (Drosophila RNAi Screening Center, 2018)
The screen tested about 24,000 reagents; shown is a random part of those that have a named target and a result. Of all reagents, about 1,210 (5%) are marked active. 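Inactive calls also include excluded dsRNAs with several or no targets, genes unexpressed in JW18, and well A1, regardless of score.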 Unmarked entries are inactive. A plus sign joins genes that one reagent is predicted to hit.

Assay: 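Genome-wide screen for host control of endosymbiont load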 (primary screen)
System: Drosophila JW18 cells infected with Wolbachia
Knock-down reagent: long dsRNA against Drosophila genes, 0.25 µg dsRNA per well of a 384-well plate
Timing: 5 days
Conditions: cells persistently infected with Wolbachia before knock-down; no added drug
Detection: 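Imaged fluorescence in situ signal for Wolbachia 23S rRNA per DAPI-counted host cell, given as a robust z-score within each plate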
Scale: Wolbachia per cell robust z: higher = more Wolbachia per host cell than the plate typical
Active means: 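Hit when robust z is 1.5 or more, or -1.5 or less, in at least two of three replicates; excludes dsRNAs with several or no targets, genes not expressed in JW18 and well A1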

Target gene,dsRNA,"Wolbachia per cell robust z, rep 1","Wolbachia per cell robust z, rep 2","Wolbachia per cell robust z, rep 3"
CenB1A (Centaurin beta 1A),DRSC16923,-0.68,0.731,-0.339
CenB1A (Centaurin beta 1A),DRSC28028,2.8 (active),2.15,1.27
CG2003,DRSC15411,-0.9,-1.14,-0.343
CG13060,DRSC09943,-3.6,-5.76,1.56
CG13060,DRSC28110,0.633,-0.316,-1.11
Bacc (Bacchus),DRSC27262,1.01,1.19,0.661
Remo (Remoulade),DRSC19710,-4.18,-0.337,0.316
Nepl15 (Neprilysin-like 15),DRSC15630,-0.779,-12.6,0.4
mIF2 (mitochondrial translation initiation factor 2),DRSC14510,0.332,0.352,-0.21
mIF2 (mitochondrial translation initiation factor 2),DRSC26368,0.1,-0.53,-0.415
CG3520,DRSC04383,-0.524,-0.431,-0.00373
Oatp33Ea (Organic anion transporting polypeptide 33Ea),DRSC02859,-3.49,0.936,1.13
Oatp33Ea (Organic anion transporting polypeptide 33Ea),DRSC26461,-2.6,-0.587,-0.627
fw (furrowed),DRSC20334,-2.99,-0.423,0.608
fw (furrowed),DRSC27087,0.258,0.0213,-0.171
CG8635,DRSC07226,1.34,-1.5,0.565
CG8635,DRSC29143,0.492,-0.477,0.959
ND-20L (NADH dehydrogenase (ubiquinone) 20 kDa subunit-like),DRSC15414,-4.35,-0.55,-1.14
svp (seven up),DRSC12899,0.337,0.964,1.15
svp (seven up),DRSC17075,-0.164,0.221,0.431
svp (seven up),DRSC27764,-0.113,-4.45,-0.848
EndoU (Endoribonuclease U-specific),DRSC15472,0.234,-0.336,-0.00582
ACC (Acetyl-CoA carboxylase),DRSC06059,1.5 (active),3.86,2.86
ACC (Acetyl-CoA carboxylase),DRSC07249,2.03 (active),1.07,2.25
CG32453,DRSC21673,0.309,-1.13,0.516
Dref (DNA replication-related element factor),DRSC03319,0.677,0.894,0.281
CG5418,DRSC02857,0.223,-0.417,-4.45
CG5418,DRSC25643,-0.773,0.094,0.771
CG42302,DRSC40640,0.748,1.39,0.516
Rift (Riboflavin transporter),DRSC14330,-0.846,-0.047,0.849
CG8813,DRSC00706,-0.0753,-0.67,1.14
CG8813,DRSC41527,0.895,0.665,-1.31
CG34039,DRSC37914,1.23,1.02,1.24
CG33332,DRSC15504,-0.857,-0.704,0.533
CG33332,DRSC27661,0.635,-1.27,0.314
Arp3 (Actin-related protein 3),DRSC09669,-4.52 (active),0.307,-7.78
Arp3 (Actin-related protein 3),DRSC29666,0.247,0.363,-0.387
Cpn (Calphotin),DRSC16613,0.0641,-4.28,1.41
Cpn (Calphotin),DRSC23835,0.162,0.559,-0.544
CG43740,DRSC23059,-0.936,-0.426,1.8
CG43740,DRSC23267,-0.964,-5.09,0.957
CecA2 (Cecropin A2),DRSC16604,-0.519,-0.716,-0.969
Obp50d (Odorant-binding protein 50d),DRSC05483,0.453,0.99,1.24
Gip (GIP-like),DRSC18667,-1.94,0.235,-0.865
l(1)G0469 (lethal (1) G0469),DRSC19412,-0.837,0.767,1.04
l(1)G0469 (lethal (1) G0469),DRSC19462,-0.447 (active),-1.73,-4.29

Targets above whose gene name begins with N or n:
Target gene,dsRNA,"Wolbachia per cell robust z, rep 1","Wolbachia per cell robust z, rep 2","Wolbachia per cell robust z, rep 3"
Nepl15 (Neprilysin-like 15),DRSC15630,-0.779,-12.6,0.4
ND-20L (NADH dehydrogenase (ubiquinone) 20 kDa subunit-like),DRSC15414,-4.35,-0.55,-1.14

Additional results follow.
Target gene,dsRNA,"Wolbachia per cell robust z, rep 1","Wolbachia per cell robust z, rep 2","Wolbachia per cell robust z, rep 3"
CG5447,DRSC15801,-0.207,0.284,1.05
CG5447,DRSC26407,0.211,-0.702,0.265
CG31908,DRSC23243,-1.29,0.0347,0.933
w (white),DRSC18850,0.893,-1.46,0.15
w (white),DRSC30065,-0.939,-0.282,-1.36
CG15760,DRSC19725,-0.29,-0.492,0.946
CG15760,DRSC25944,0.608,1.24,-0.285
CG12541,DRSC17839,-0.0704,0.387,0.309
CG12541,DRSC28362,-1.8,-0.0581,-1.41
CG32772,DRSC18406,0.953,-0.0759,-0.368
CG32772,DRSC22349,-0.903,-0.0519,0.977
Nup214 (Nucleoporin 214kD),DRSC04421,0.803,-1.11,0.282
bai (baiser),DRSC14388,1.49,-0.0467,1.23
CG14326,DRSC14805,0.626,1.25,0.437
CG14326,DRSC28069,0.528,0.321,1.48
Cyp6a17 (Cytochrome P450 6a17),DRSC07378,-0.744,-0.924,0.366
sfl (sulfateless),DRSC08828,1.73,0.609,0.566
sfl (sulfateless),DRSC08830,0.656,1.14,-0.97
sfl (sulfateless),DRSC25916,0.782,0.00449,-0.123
Prosbeta1 (Proteasome beta1 subunit),DRSC07159,2.94 (active),0.965,5.67
Frq1 (Frequenin 1),DRSC19961,1.03,-0.543,-1.4
Frq1 (Frequenin 1),DRSC25439,-0.776,-1.76,-1.31
vito (viriato),DRSC21781,-1.47,0.825,-0.639
vito (viriato),DRSC24852,-2.85 (active),2.26,2.54
CG43773 + CG43774,DRSC00287,-0.461,-0.819,1.43
prod (proliferation disrupter),DRSC07667,0.726,-0.52,-0.887
prod (proliferation disrupter),DRSC25498,-0.137,-0.0749,-0.0494
Fic (Fic domain-containing protein),DRSC03247,-4.64,0.372,-0.474
bora (aurora borealis),DRSC10744,0.823,1.28,0.601
Strica (Ser/Thr-rich caspase),DRSC04920,-0.71,0.363,0.701
mbm (mushroom body miniature),DRSC00319,1.13,1.66,0.646
"ATPsynE (ATP synthase, subunit E)",DRSC15476,-1.1,1.49,1.32
"ATPsynE (ATP synthase, subunit E)",DRSC30103,1.07,-9.97,0.913
wwk (white walker),DRSC01941,-0.819,-0.0977,1.13
CG18281,DRSC11742,-1.6,1.37,0.964
CG12780,DRSC06169,-0.887,0.23,-0.222
CG13551,DRSC21847,-0.451,-1.64,-0.178
CG13551,DRSC41274,0.235,0.0564,-0.324
CG34423 + Mthfs,DRSC04088,-0.0236,0.43,0.252
eIF2Bdelta (eukaryotic translation initiation factor 2B subunit delta),DRSC04058,0.407,-0.299,-0.021
CR40354 (pseudo),DRSC38777,0.358,-5.19,-0.0141
